Reference: PubChem BioAssay AID624414 (National Center for Advancing Translational Sciences (NCATS), 2012)
This is a selection; strong and weak results do not stand in their true shares. The source made the active and inactive calls. Rule as the data show it: active = activation above about 50%; inconclusive = mostly about 30% to 49%; inactive = weaker than that.

Sequences of proteins named here, by UniProt entry; tags and fusion partners are left off.
UniProt Q9GZU1, whole entry: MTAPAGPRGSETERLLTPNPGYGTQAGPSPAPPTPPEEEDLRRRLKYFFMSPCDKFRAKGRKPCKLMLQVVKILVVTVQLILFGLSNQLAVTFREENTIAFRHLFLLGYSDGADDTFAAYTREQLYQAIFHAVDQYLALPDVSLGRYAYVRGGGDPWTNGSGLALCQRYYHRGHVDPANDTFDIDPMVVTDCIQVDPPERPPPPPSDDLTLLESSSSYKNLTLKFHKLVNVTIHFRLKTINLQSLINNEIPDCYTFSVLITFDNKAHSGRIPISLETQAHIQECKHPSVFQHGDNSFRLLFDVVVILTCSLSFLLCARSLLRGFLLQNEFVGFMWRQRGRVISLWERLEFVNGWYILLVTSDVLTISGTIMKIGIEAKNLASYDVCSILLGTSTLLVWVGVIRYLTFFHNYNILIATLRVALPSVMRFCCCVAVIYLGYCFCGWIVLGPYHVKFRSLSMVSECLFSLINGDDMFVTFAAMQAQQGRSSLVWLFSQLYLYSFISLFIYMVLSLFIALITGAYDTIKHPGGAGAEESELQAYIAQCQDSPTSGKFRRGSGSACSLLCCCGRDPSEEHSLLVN

Target: Mucolipin-1 (Homo sapiens) (UniProt Q9GZU1)
Test: qHTS for Agonists of the Human Mucolipin Transient Receptor Potential 1 (TRPML1); also: 0% is about no effect
Conditions: TRPML1-expressing cells, Ca2+ dye fluorescence, FDSS; hits give high values
Outline: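 Agonist activity was taken from a 110 s kinetic Ca2+ dye read on the FDSS after pinning compounds onto TRPML1-DL cells. The cells were seeded at 1,500/well with Tet inducer, incubated about 16 h, then dye-loaded at room temperature.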

Row | SMILES | activation
1 | COc1ccccc1OP(C)(=O)Nc1ccc(C)cc1 (centres undefined) | inactive: 0.325%
2 | COC(=O)C1(C)COP(=O)(N2CCCCCC2)OC1 (centres undefined) | inactive: 0.184%
3 | Cc1ccc(NP(C)(=O)Oc2ccccc2)c(C)c1 (centres undefined) | inactive: -0.169%
4 | CC(C)c1ccc(OP(=O)(Nc2ccccn2)Oc2ccccc2F)cc1 (centres undefined) | inactive: 1.24%
5 | O=P1(N(CCCl)CCCl)OCCCN1CCCl (centres undefined) | inactive: 1.03%
6 | O=P1(N(CCCl)CCCl)Nc2ccccc2N1 | inactive: 0.739%
7 | COc1ccc2nc(NP(=O)(c3ccccc3)c3ccccc3)sc2c1 | inactive: 0.486%
8 | COc1cc(I)ccc1[As](=O)(O)O | inactive: 0.894%
9 | Cc1c2c(nc3ccccc13)SC(C(Cl)Cl)C2 (centres undefined) | inactive: 1.38%
10 | O=C(OC1CN2CCC1CC2)C12CC3CC(CC(C3)C1)C2 (centres undefined) | inactive: 2.04%
11 | Cc1cc(=O)[nH]c(N[N+](=O)[O-])n1 | inactive: 0.466%
12 | CCN(CC)CCCOC(=O)C(O)(c1ccccc1)c1ccccc1 | inactive: 1.21%
13 | COc1ccc(N/C(=N/P(=O)(N2CCOCC2)N2CCOCC2)N2CCOCC2)cc1 | inactive: -0.118%
14 | COc1ccccc1-c1ccccn1.O=[N+]([O-])c1cc([N+](=O)[O-])c(O)c([N+](=O)[O-])c1 | inactive: -0.611%
15 | O=C(COc1ccccc1)OC1CN2CCC1CC2 (centres undefined) | inactive: -0.605%
16 | CP(=O)(NC(=O)Nc1ccccc1)Oc1ccccc1 (centres undefined) | inactive: 0.654%
17 | CCc1ccc(OP(C)(=O)N2CCN(c3ccc([N+](=O)[O-])cc3)CC2)cc1 (centres undefined) | inactive: 1.16%
18 | O=C(Nc1ccncc1[N+](=O)[O-])c1ccc([N+](=O)[O-])cc1[N+](=O)[O-] | inactive: 1.03%
19 | Cc1cc(C)cc(OP(C)(=O)Nc2ccc(SC(F)(F)F)cc2)c1 (centres undefined) | inactive: 0.596%
20 | COP1(=S)c2c(C)nn(CCC#N)c2N=C(c2ccc(F)cc2)N1C (centres undefined) | inactive: 0.147%
21 | Cc1cccc(C)c1OP(C)(=O)Nc1ccc(SC(F)(F)F)cc1 (centres undefined) | inactive: 0.215%
22 | CP(=O)(Nc1ccc(SC(F)(F)F)cc1)Oc1ccc(Cl)cc1 (centres undefined) | inactive: 1.42%
23 | CP(=O)(Oc1ccccc1)OC(c1ccccc1)C(F)(F)F (centres undefined) | inactive: 1.59%
24 | COC(=O)C1(C)COP(=O)(N2CCCC2)OC1 (centres undefined) | inactive: -0.58%
25 | CCC(C)N(CC(C)C)C(=S)SC(NC(C)=O)C(Cl)(Cl)Cl (centres undefined) | inactive: -0.551%

Row | SMILES | activation
26 | CP(=O)(Nc1ccccn1)Oc1ccc(Cl)cc1 (centres undefined) | inactive: -0.56%
27 | CCOP(=O)(Nc1cccc2cccnc12)OCC | inactive: 2.65%
28 | O=C(OC1CN2CCC1CC2)c1cccc([N+](=O)[O-])c1 (centres undefined) | inactive: 0.204%
29 | CCOP(C)(=S)SCC(=O)NC(C)C(=O)O (centres undefined) | inactive: -0.0707%
30 | CSc1ccc(Nc2c([N+](=O)[O-])cc([N+](=O)[O-])cc2[N+](=O)[O-])cc1 | inactive: 5.63%
31 | CCOC(=O)c1ccc(NC(=O)C(C)(CCl)SC)cc1 (centres undefined) | inactive: 1.11%
32 | CCOC(=O)c1ccc(NP(C)(=O)Oc2ccc(OC)cc2)cc1 (centres undefined) | inactive: 0.507%
33 | O=[N+]([O-])c1cc([N+](=O)[O-])c(O)c([N+](=O)[O-])c1.c1ccc(Oc2ccncc2)cc1 | inactive: 0.169%
34 | COP(=O)(OC)N1CC1c1ccccc1 (centres undefined) | inactive: -0.385%
35 | CCCCOc1ccc(C(=O)NCC2(N3CCCCC3)CCCCC2)cc1OC | inactive: 28.1%
36 | Cc1cc(SC(NC(=O)c2ccccc2)C(Cl)(Cl)Cl)nc(C(C)C)n1 (centres undefined) | inactive: 0.28%
37 | O=C(O)C(=O)c1ccc(N(CCCl)CCCl)cc1.c1ccc(Nc2ccccc2)cc1 | inactive: -0.42%
38 | CC1CCNP(=O)(N(CCCl)CCCl)O1 (centres undefined) | inactive: -0.405%
39 | O=P(Nc1ccccn1)(c1cccc2ccccc12)c1cccc2ccccc12 | inactive: 1.25%
40 | Cc1cc(SC(NC=O)C(Cl)(Cl)Cl)ncn1 (centres undefined) | inactive: -0.579%
41 | COc1ccccc1OP(C)(=O)Nc1ccccc1 (centres undefined) | inactive: -0.606%
42 | CP(=O)(Nc1ccccc1Br)Oc1ccccc1 (centres undefined) | inactive: -0.89%
43 | O=[N+]([O-])c1ccc(Nc2ccc(Oc3ccc([N+](=O)[O-])cc3[N+](=O)[O-])cc2)c([N+](=O)[O-])c1 | inactive: -0.0843%
44 | CP(=S)(Nn1cnnc1)Oc1ccccc1 (centres undefined) | inactive: -0.369%
45 | CCOC(=O)Nc1cccc([As](=O)(O)O)c1 | inactive: 1.18%
46 | CP(=O)(OC12CC3CC(CC(C3)C1)C2)OC12CC3CC(CC(C3)C1)C2 | inactive: 3.1%
47 | CCOC(=O)c1ccc(NP(C)(=O)Oc2ccc(Cl)cc2)cc1 (centres undefined) | inactive: -0.404%
48 | O=P(/N=c1/nc(-c2ccccc2)n(-c2ccccc2)s1)(Nc1ccccc1)Nc1ccccc1 | inactive: -0.0317%
49 | O=C(Nc1cc([As](=O)(O)O)ccc1O)c1ccccc1 | inactive: 2.6%
